In patent publication US20210102215A1, “TREATMENT AND PREVENTION OF VIRAL INFECTION” (priority 2016, published 2021) one finds Cytotoxicity data, which are given here for two molecules.

The test system of this data set is Huh-7 cells. The conditions noted are these: human.

As for `CCOC(=O)N1CCC(CN(Cc2ccc(Cl)cc2)Cc2ccc([N+](=O)[O-])s2)C1` (centres unmarked) [SR9009], the Cytotoxicity entry was “Neither GSK4112 nor SR9009 showed any detectable cytotoxicity”. On to `CC(C)(C)OC(=O)CN(Cc1ccc(Cl)cc1)Cc1ccc([N+](=O)[O-])s1` [GSK4112], for which the Cytotoxicity entry is reported as “Neither GSK4112 nor SR9009 showed any detectable cytotoxicity”.
